Four compounds from article PMC9585585, “Discovery of Small-Molecule Allosteric Inhibitors of PfATC as Antimalarials” (Journal of the American Chemical Society, 2022) can be followed below.

Amino acid sequences for entries named in this document (tags omitted). Residues count along the entry.
UniProt A0A5K1K910, 37-375 limits assumed: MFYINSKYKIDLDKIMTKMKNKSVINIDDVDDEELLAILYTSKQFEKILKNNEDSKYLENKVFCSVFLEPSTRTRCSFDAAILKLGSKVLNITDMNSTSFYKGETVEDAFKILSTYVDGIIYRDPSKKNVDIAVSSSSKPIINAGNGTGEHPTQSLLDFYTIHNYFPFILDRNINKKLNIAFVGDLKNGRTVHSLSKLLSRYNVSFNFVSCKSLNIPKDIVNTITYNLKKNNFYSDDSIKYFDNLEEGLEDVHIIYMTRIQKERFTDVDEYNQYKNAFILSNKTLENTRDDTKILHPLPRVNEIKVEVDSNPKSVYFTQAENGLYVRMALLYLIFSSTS

Molecules are shown by their SMILES.

Experiment [1] deals with T1, PfATC (Plasmodium falciparum, UniProt A0A5K1K910). As to conditions: read-out: IC50 against PfATC; in vitro enzyme assay, PfATC 50 nM, n = 3.
Experiment [2] addresses T1, PfATC. As to the kind of experiment: Differential scanning fluorimetry (DSF). It counts as binding. The note with it: PfATC 5 µM. The text has this:
464Data collection, processing and refinement. All the diffraction data sets were collected using
465synchrotron radiation wavelength 1.033200 Å at DESY beamline P11. The data collected for
466PfATC crystals grown in presence of fragments and compounds were processed using XDSAPP 25
467and Aimless 26, and the structures were solved and initially refined using the DIMPLE pipeline
468within CCP4 suite 26 with coordinates of the unliganded PfATC (5ILQ) as a starting model. The
469final refinement included manual rebuilding in coot 27 and Refmac5 28. The resulting crystal
470structures were deposited in PDB 29. Data collection and processing statistics are show in Table
472Differential Scanning Fluorimetry (DSF). The purified PfATC was incubate with 5000 × Sypro
473Orange (Invitrogen) and dilution it to 1:400 stock of dye in assay buffer (50 mM Tris-HCl pH =8.0
474and 300 mM NaCl). Each reaction consisted of 2 µL compound (10 mM stock in 100% DMSO), 5
475µL PfATC-Sypro orange mixture and 43 µL assay buffer. Final protein assay concentration was
4765µM, final DMSO concentration war […]. After incubation for 20 min at 20 ℃, the samples
477were hated from 25℃ to 95℃ at a rate of 0.5 ℃ min -1. The inflection points of the melting curves
478were determined using BioRad CSV 96 control software and processed & plotted by GraphPad.
479Microscale Thermophoresis (MST). […]

Take `NOCc1ccccc1`: the IC50 on PfATC [1] was found to be 125000 nM.

For `NCc1ccc(Cl)cc1`, at PfATC [1], the IC50 turned out to be 10000 nM. The “ΔTM of PfATC (thermal stabilization)” value on PfATC [2] turned out to be 2.0 °C.

In the case of `NCCc1ccccc1`, at PfATC [1], the concentration for half-maximal inhibition (IC50) was 150000 nM.

As to `c1ccc2[nH]ccc2c1`, on PfATC [1], the IC50 came to 145000 nM.
